In patent US20240254204A1:

Molecular target: spikes of the eight spike-pseudotyped reporter viruses
Assay: cell-based or functional assay

For S2X259 (VirBiotech) (antibody), which pseudovirus neutralization, potency against the three mAbs of the study is on record?
The pseudovirus neutralization, potency against the three mAbs of the study was 10 fold.
